In-gel DMS probing of monomeric and dimeric HIV-1 RNA

The measurements come from Ye et al. 2022 (doi:10.1038/s41594-022-00746-2).

RNA: 5' end of the HIV-1 NL4-3 genome, made in vitro. Positions 1-437 read:
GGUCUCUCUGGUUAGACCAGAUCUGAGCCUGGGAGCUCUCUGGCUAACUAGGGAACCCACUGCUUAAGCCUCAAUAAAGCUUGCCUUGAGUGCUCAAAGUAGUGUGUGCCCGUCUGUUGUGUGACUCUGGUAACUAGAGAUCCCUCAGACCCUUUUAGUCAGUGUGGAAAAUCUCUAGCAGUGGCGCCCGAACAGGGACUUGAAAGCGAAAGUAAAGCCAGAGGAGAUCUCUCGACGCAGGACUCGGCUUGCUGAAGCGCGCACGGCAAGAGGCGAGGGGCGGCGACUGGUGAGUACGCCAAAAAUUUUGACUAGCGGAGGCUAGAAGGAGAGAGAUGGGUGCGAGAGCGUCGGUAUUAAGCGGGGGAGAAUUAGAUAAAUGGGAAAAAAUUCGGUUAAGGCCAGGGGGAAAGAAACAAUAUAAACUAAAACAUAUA

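Randomly mutated transcripts starting with one, two or three G (1G, 2G, 3G), capped or uncapped, were folded for 30 min at 37 °C. High salt was 300 mM KCl and 5 mM MgCl2, low salt 40 mM KCl and 0.1 mM MgCl2; monomer and dimer were parted on a native gel. Each band was probed in the gel with DMS (170 mM, 15 min, 37 °C), with ethanol as control, and sequenced.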

Scale: normalised reactivity, A and C only; low values point to paired or protected bases, higher values to unpaired ones. One numbering serves 1G, 2G and 3G. A position is written with its base.

position,domain,1G capped high-salt dimer,1G capped low-salt monomer,2G uncapped low-salt monomer
C160,PBS,0.05,0.04,0.04
A161,PBS,0.48,0.48,0.45
A168,PBS,0.43,0.46,0.45
A169,PBS,0.67,0.71,0.70
A170,PBS,0.56,0.53,0.53
A171,PBS,0.49,0.44,0.45
C173,PBS,0.04,0.04,0.03
C175,PBS,0.04,0.04,0.03
A177,PBS,0.24,0.24,0.24
C179,PBS,0.83,0.72,0.78
A180,PBS,0.61,0.52,0.56
C185,PBS,0.45,0.42,0.41
C187,PBS,0.04,0.04,0.03
C188,PBS,0.09,0.08,0.06
C189,PBS,0.14,0.11,0.08
A191,PBS,0.42,0.39,0.40
A192,PBS,0.73,0.77,0.79
C193,PBS,0.76,0.81,0.81
A194,PBS,0.88,1.02,1.02
A198,PBS,0.62,0.61,0.57
C199,PBS,0.51,0.46,0.40
A203,PBS,0.53,0.50,0.49
A204,PBS,0.75,0.70,0.69
A205,PBS,0.38,0.32,0.34
C207,PBS,0.63,0.48,0.42
A209,PBS,0.43,0.46,0.43
A210,PBS,0.51,0.57,0.54
A211,PBS,0.51,0.39,0.38
A214,PBS,0.31,0.26,0.26
A215,PBS,0.70,0.51,0.51
A216,PBS,0.70,0.49,0.55
C218,antiPAS,0.06,0.04,0.03
C219,antiPAS,0.05,0.04,0.03
A220,antiPAS,0.22,0.32,0.33
A222,antiPAS,0.30,0.26,0.26
A225,none,0.82,0.71,0.76
A227,CU,0.22,0.27,0.30
C229,CU,0.15,0.22,0.27
C231,CU,0.12,0.16,0.18
C233,CU,0.15,0.29,0.30
A235,none,0.79,0.67,0.62
C236,none,0.43,0.57,0.48
C238,none,0.46,0.72,0.72
A239,none,0.77,0.57,0.57
A242,none,1.11,0.91,0.83
C243,SL1,0.04,0.06,0.05
C245,SL1,0.06,0.21,0.27
C248,SL1,0.04,0.05,0.05
C252,SL1,0.04,0.18,0.23
A255,SL1,0.55,0.47,0.49
A256,SL1,1.13,0.88,0.83
C258,SL1,0.22,0.36,0.31
C260,SL1,0.34,0.51,0.42
C262,SL1,0.22,0.42,0.36
A263,SL1,0.91,0.24,0.22
C264,SL1,0.19,0.45,0.45
C267,SL1,0.07,0.19,0.14
A268,SL1,0.18,0.31,0.26
A269,SL1,0.26,0.50,0.44

A selection of 5 entries from above:

- C193 (domain PBS) -> 1G capped high-salt dimer 0.76; 1G capped low-salt monomer 0.81; 2G uncapped low-salt monomer 0.81
- C188 (domain PBS) -> 1G capped high-salt dimer 0.09; 1G capped low-salt monomer 0.08; 2G uncapped low-salt monomer 0.06
- C219 (domain antiPAS) -> 1G capped high-salt dimer 0.05; 1G capped low-salt monomer 0.04; 2G uncapped low-salt monomer 0.03
- A210 (domain PBS) -> 1G capped high-salt dimer 0.51; 1G capped low-salt monomer 0.57; 2G uncapped low-salt monomer 0.54
- C207 (domain PBS) -> 1G capped high-salt dimer 0.63; 1G capped low-salt monomer 0.48; 2G uncapped low-salt monomer 0.42